PubChem BioAssay AID1224833 – University of Georgia – 2016
Test: 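Host factors restraining rotavirus as candidate antiviral genes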 (primary screen). Cell system: monkey MA104 kidney cells. Reagent: siRNA pool against human genes, 50 nM. Duration: 48 h knock-down before infection; read 24 h after infection. Conditions: infection with rotavirus strain RV3 two days after transfection; infectious dose for this stage not given. Measured: 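z-score of rotavirus antigen signal per well, from a fluorescent immunoassay, relative to non-targeting control wells on the same plate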. Reading the numbers: z-score vs non-targeting control: higher = more rotavirus replication than with non-targeting control. Hit rule: In these data the active calls have z-score vs non-targeting control at about -1 or lower, or at about 1 or higher. Calls: active = z-score beyond 1 either way; inactive = z-score within 1 of zero.
Here is one part, drawn at random, of about 12,000 deposited reagents. About 5,600 of them (46%) count as active. 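Active calls cover z-scores past 1 in both directions, so they include lowered as well as raised rotavirus replication.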 Unmarked entries are inactive. No sequences are given here.

target gene,z-score vs non-targeting control
ARRDC2,0.805
PBLD,0.506
OBP2A,-0.32
IGF2BP3,2.12 (active)
CHST5,0.782
BCORL1,-1.72 (active)
ZNF618,-1.1 (active)
SECISBP2L,1.51 (active)
CASC3,-0.181
CYBRD1,-2.16 (active)
SFRP4,-1.4 (active)
KRT5,0.211
CALU,-1.85 (active)
MAPK8IP2,-0.121
EFHD1,-0.541
IFT38,1.04 (active)
ARTN,-0.105
ANXA8L1,-0.722
GFPT1,-2.65 (active)
LRRN2,2.44 (active)
PODXL,0.533
CC2D2A,-0.694
DRC12,-0.472
LGI2,0.749
GALC,-0.517
EXOSC5,-0.858
PLAGL1,-1.15 (active)
TAS2R50,0.851
IQCN,3.39 (active)
SLC35E1,0.94
COMMD2,-0.155
TJP3,-1.29 (active)
SLC35F3,-1.46 (active)
ARL4C,-0.157
SLC3A1,0.981
SUDS3,0.124
FAM234A,-2.58 (active)
ZC2HC1C,-0.237
POGLUT2,-0.955

16 successive entries already listed, for reference:
target gene,z-score vs non-targeting control
KRT5,0.211
CALU,-1.85 (active)
MAPK8IP2,-0.121
EFHD1,-0.541
IFT38,1.04 (active)
ARTN,-0.105
ANXA8L1,-0.722
GFPT1,-2.65 (active)
LRRN2,2.44 (active)
PODXL,0.533
CC2D2A,-0.694
DRC12,-0.472
LGI2,0.749
GALC,-0.517
EXOSC5,-0.858
PLAGL1,-1.15 (active)

More results:
target gene,z-score vs non-targeting control
SPRED1,-0.975
CA1,-1.17 (active)
TRMT11,-1.21 (active)
YTHDF3,-1.17 (active)
CKLF,-1.55 (active)
MPIG6B,-0.143
THBS4,-1.12 (active)
KCTD9,0.918
RCN1,0.708
FAM135A,1.51 (active)
GNG5,1.81 (active)
CSAD,-0.872
GIGYF2,0.776
AUTS2,0.178
CMC1,0.628
RRP12,1.61 (active)
JAGN1,-0.474
TIAM2,0.575
ATP6AP2,-0.344
ESPN,0.892
TNPO3,-0.264
CEP72,0.917
B3GALT2,2.08 (active)
FNBP1L,0.52
OR8B2,-1.3 (active)
UGT1A6,1.52 (active)
BICRAL,0.815
MED10,1.38 (active)
ARRDC3,-1.58 (active)
TIMM9,0.94
MICOS13,-0.215
HACL1,-1.15 (active)
IRAG1,0.0293
MIA3,-1.34 (active)
ACACB,0.932
SLC24A4,-1.63 (active)
RAB10,-0.712
SH2D2A,-2.19 (active)
POT1,-0.715
TSLP,2.48 (active)
SDHA,0.615
UNC5A,-1.59 (active)
RPL22,1.91 (active)
MUC21,0.681
ZNF583,1.07 (active)
ADA2,-0.832
RASD2,-0.417
KDM8,-0.687
HEYL,-0.629
RTBDN,-1.43 (active)
OR1D5,0.0374
OLFM4,-0.929
CHCT1,1.61 (active)
BSPRY,1.14 (active)
SCO1,2.19 (active)
FAM3A,-0.424
PTF1A,-0.862
MUTYH,-1.44 (active)
NACC1,-2.85 (active)
DEFB125,-0.699
RAB11FIP4,0.375
HOXA4,0.715
GSTA1,-0.907
SAMD7,0.44
IL18,-0.557
SRP54,0.518
MICOS10,-0.581
OPA3,-0.574
SNX21,-0.392
FANCE,-1.52 (active)
MRPL32,1.07 (active)
